Measured values from several laboratories, pooled; numbers as filed in NIAID ChemDB.

Shared fields: tests on isolated targets; organism: Toxoplasma gondii; protein: DHFR; endpoint: IC50

ICn: concentration for n% inhibition.

{"structure": "Nc1nc(N)c2nc(CCc3ccnc4ccccc34)cnc2n1", "value": "0.61 µM"}
{"structure": "Nc1nc(N)c2nc(CCc3ccccc3)c(CCc3ccccc3)nc2n1", "value": "4.8 µM"}
{"structure": "Nc1ccc(S(=O)(=O)Nc2nccs2)cc1", "value": "1.7 µM"}
{"structure": "CCc1nc2nc(N)nc(N)c2nc1CC", "value": "1 µM"}
{"structure": "Cc1cc(C)nc(NS(=O)(=O)c2ccc(N)cc2)n1", "value": "5.7 µM"}
{"structure": "Nc1nc(N)c2cc(I)ccc2n1", "value": "1.6 µM"}
{"structure": "Nc1nc(N)c2c3c(sc2n1)CCCCCCCCCC3", "value": "0.85 µM"}
{"structure": "CCc1nc2nc(N)nc(N)c2nc1-c1ccccc1OC", "value": "0.018 µM"}
{"structure": "Cc1noc(NS(=O)(=O)c2ccc(N)cc2)c1C", "value": "17 µM"}
{"structure": "COc1cc(CCc2cnc3nc(N)nc(N)c3n2)cc(OC)c1OC", "value": "0.7 µM"}
{"structure": "Nc1ccc(S(=O)(=O)c2ccc(NCCO)cc2)cc1", "value": "0.35 µM"}
{"structure": "Cl.Nc1nc(N)c2nc(CCc3ccccn3)cnc2n1", "value": "9.9 µM"}
{"structure": "Nc1nc(N)c2nc3c(ccc4ccccc43)nc2n1", "value": "4.9 µM"}
{"structure": "Nc1nc(N)c2nc(CCc3cccs3)cnc2n1", "value": "1 µM"}
{"structure": "CCCCc1ccc(Cc2nc3nc(N)nc(N)c3nc2Cc2ccc(CCCC)cc2)cc1", "value": "14 µM"}
{"structure": "COc1ccc(OC)c(NCc2csc3nc(N)nc(N)c23)c1", "value": ">10 µM"}
{"structure": "CC1(C)N=C(N)N=C(N)N1c1ccc(-c2ccc3c(Cl)c(Cl)ccc3c2)cc1", "value": "1.4 µM"}
{"structure": "Nc1nc(N)c2nc(CCc3ccc4ccccc4c3)cnc2n1", "value": "0.32 µM"}
{"structure": "Nc1nc(N)c2cc(C(F)(F)F)ccc2n1", "value": "3.1 µM"}
{"structure": "COc1ccc(OC)c(N(C)Cc2cnc3nc(N)nc(N)c3c2C)c1", "value": "0.016 µM"}

A second listing of 2 rows from above:

structure | value
Nc1nc(N)c2nc(CCc3ccnc4ccccc34)cnc2n1 | 0.61 µM
COc1ccc(OC)c(N(C)Cc2cnc3nc(N)nc(N)c3c2C)c1 | 0.016 µM

Rows are shuffled and stem from different studies.